Molecular target: MtDXPS (Mycobacterium tuberculosis, UniProt P9WNS3)
Test: coupled spectrophotometric enzyme activity assay against MtDXPS
Format: biochemical
Settings: Table S1, first round of LBVS

Sequences of proteins named here, by UniProt entry; tags and fusion partners are left off. A change or cut given only in a name is not applied to a line headed by its entry.
UniProt P9WNS3: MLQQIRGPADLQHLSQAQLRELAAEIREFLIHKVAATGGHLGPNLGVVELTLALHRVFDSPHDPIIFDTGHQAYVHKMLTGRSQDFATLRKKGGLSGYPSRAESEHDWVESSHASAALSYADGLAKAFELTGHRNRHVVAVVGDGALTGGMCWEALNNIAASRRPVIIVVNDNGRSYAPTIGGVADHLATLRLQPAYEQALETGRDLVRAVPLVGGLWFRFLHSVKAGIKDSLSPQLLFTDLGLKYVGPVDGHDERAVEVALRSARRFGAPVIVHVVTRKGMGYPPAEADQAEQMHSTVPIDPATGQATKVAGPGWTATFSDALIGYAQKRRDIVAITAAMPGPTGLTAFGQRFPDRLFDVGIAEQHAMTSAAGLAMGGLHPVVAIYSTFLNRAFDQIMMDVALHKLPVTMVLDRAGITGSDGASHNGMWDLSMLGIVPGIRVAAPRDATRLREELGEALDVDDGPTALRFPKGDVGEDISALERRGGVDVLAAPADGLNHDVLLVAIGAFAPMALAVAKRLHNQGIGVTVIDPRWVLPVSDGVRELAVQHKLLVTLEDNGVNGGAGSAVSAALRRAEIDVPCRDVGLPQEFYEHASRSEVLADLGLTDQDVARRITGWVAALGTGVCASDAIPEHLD

Point of comparison: CC(C)c1ccc(Cn2c(CCO)nc3ccccc32)cc1, IC50 317 µM. Against it:
- Cc1nc(N)c(CC(Br)CBr)c(Cl)n1 (centres unmarked) — 2.4-fold higher, 748 µM
- O=C(O)c1cccc(-n2cccc2/C=N/O)c1 — within 1.5-fold, 455 µM
- Cc1c2ncn(Cc3ccc(Cl)cc3)c(=O)c2nn1C — 3.2-fold higher, 1000 µM
- O/N=C(\c1ccc(F)cc1)c1ccc(O)cc1O — 1.7-fold higher, 528 µM
- NC1=NC(c2ccc(Cl)cc2Cl)n2c(nc3ccccc32)N1 (centres unmarked) — 2.2-fold lower, 145 µM

Same assay, conditions: Table S2, second round of LBVS

Point of comparison: CC(O)c1nc2ccccc2n1Cc1c(F)cccc1Cl (centres unmarked), IC50 1100 µM. Against it:
- OCCc1nc2ccccc2n1Cc1c(F)cccc1Cl — within 1.5-fold, 900 µM
- CC(c1ccccc1)n1c(CCO)nc2ccccc21 (centres unmarked) — 1.5-fold lower, 720 µM
- OCC(O)Cn1c(Cc2ccc(-c3ccccc3)cc2)nc2ccccc21 (centres unmarked) — 2.9-fold lower, 381 µM
- OCCc1nc2ccccc2n1Cc1ccccc1 — 2.6-fold higher, 2900 µM
- OCCc1nc2ccccc2n1Cc1c(Cl)cccc1Cl — 2.4-fold lower, 465 µM
- O=C1/C(=N\O)c2cccc(Cl)c2N1Cc1ccccc1 — 6.7-fold lower, 165 µM

Same assay, conditions: Table S3, third round of LBVS

Point of comparison: Cc1nc(N)sc1-c1csc(Nc2ccc(S(N)(=O)=O)cc2)n1, IC50 315 µM. Against it:
- Cc1nc(N)sc1-c1csc(Nc2cccnc2)n1 — within 1.5-fold, 377 µM
- FC(F)(F)c1cccc(Nc2nc(-c3ccccn3)cs2)c1 — 1.9-fold lower, 168 µM
- FC(F)(F)c1ccccc1Nc1nc(-c2ccccn2)cs1 — 3.7-fold lower, 86 µM

Source: paper PMC9491098, “Discovery of novel drug-like antitubercular hits targeting the MEP pathway enzyme DXPS by strategic application of ligand-based virtual screening” (Chemical Science, 2022)
